Measured values from several laboratories, pooled; numbers as filed in NIAID ChemDB.

Shared fields: growth or infection tests; organism: Hepatitis B virus; cell line: HepG2 2.2.15; read-out: EC50

Two numbers with a dash give a range or band. ECn: concentration that inhibits the pathogen or its effect by n%. Blank or dashed fields: not listed here. Conditions beyond the fields shown may differ between rows.

SMILES	method	value
Nc1nc2c(ncn2COC(CO)CO)c(=O)[nH]1	-	>100 µM
COC(=O)[C@]1(C)CC[C@]2(C)CC[C@]3(C)C4=CC=C5C(=CC(=O)C(O)=C5C)[C@]4(C)CC[C@@]3(C)[C@@H]2C1	ELISA / antigen	29.8 µM
Nc1nc2c(ncn2CC2(OCP(=O)(O)O)CC2)c(=O)[nH]1	-	0.5 µM
Nc1nc2c(ncn2CCC(CO)CO)c(=O)[nH]1	-	100 µM
COCCCCCCCCCN1C[C@H](O)[C@@H](O)[C@H](O)[C@H]1CO	-	3 µM
C[C@H](Cn1cnc2c(N)ncnc21)OCP(=O)(O)O	hybridisation	1.5 µM
CC1=C(O)C(=O)C=C2C1=CC=C1[C@@]2(C)CC[C@@]2(C)[C@@H]3C[C@](C)(C(=O)N4CCCCC4)CC[C@]3(C)CC[C@]12C	ELISA / antigen	25.2 µM
OC[C@@H]1[C@@H](O)[C@H](O)[C@@H](O)CN1CCCCCCCCCCN1C[C@H](O)[C@@H](O)[C@H](O)[C@H]1CO	-	>100 µM
Nc1nc(N)c2ncn(CCOCP(=O)(O)O)c2n1	-	1.2 µM
OC[C@H]1NC[C@H](O)[C@@H](O)[C@@H]1O	-	100–500 µM
CC1=C(O)C(=O)C=C2C1=CC=C1[C@@]2(C)CC[C@@]2(C)[C@@H]3C[C@](C)(C(=O)NC(C)C)CC[C@]3(C)CC[C@]12C	ELISA / antigen	15.9 µM
Nc1nc(N)c2ncn(C[C@@H](CO)OCP(=O)(O)O)c2n1	hybridisation	0.22 µM
Nc1ncnc2c1ncn2C[C@@H](CO)OCP(=O)(O)O	-	0.06 µM
CC1=C(O)C(=O)C=C2C1=CC=C1[C@@]2(C)CC[C@@]2(C)[C@@H]3C[C@](C)(C(=O)O)CC[C@]3(C)CC[C@]12C	ELISA / antigen	12.7 µM
Nc1nc(=O)n([C@@H]2CC[C@H](CO)O2)cc1F	-	0.2 µM
C[C@@]1(C(=O)O)CC[C@]2(C)CC[C@]3(C)C4=CC(c5c[nH]c6ccc(F)cc56)c5cc(O)c(O)cc5[C@]4(C)CC[C@@]3(C)[C@@H]2C1	ELISA / antigen	97.9 µM
Nc1nc(N)c2ncn([C@H]3CC[C@@H](CO)O3)c2n1	-	10 µM
COc1ccc2[nH]cc(C3C=C4[C@@](C)(CC[C@@]5(C)[C@@H]6C[C@](C)(C(=O)O)CC[C@]6(C)CC[C@]45C)c4cc(O)c(O)cc43)c2c1	ELISA / antigen	64.4 µM
CC1(C)C2CCC(N3C[C@H](O)[C@@H](O)[C@H](O)[C@H]3CO)C1C2	-	>100 µM
Nc1ccn([C@@H]2CS[C@H](CO)O2)c(=O)n1	ELISA / antigen	192.1 µM
O=c1[nH]cnc2c1ncn2[C@H]1CC[C@@H](CO)O1	-	>100 µM